Measured values from several laboratories, pooled; numbers as filed in NIAID ChemDB.

Shared fields: cytotoxicity tests; cell line: PBMC; endpoint: CC50

CCn: concentration that lowers growth or viability of the cells by n%.

| SMILES | value |
|---|---|
| Nc1ncnc2c1ncn2[C@H]1O[C@@H](CO)CC1(F)F | >100 µM |
| CN1c2c(-c3ccccc3)nn(CC(=O)N/N=C/c3ccccc3F)c2-c2ccccc2S1(=O)=O | >100 µM |
| Cc1nnc2c3ccccc3c(N3CCc4cc(O)c(O)cc4C3)nn12 | 3.28 µM |
| O=C(NCCc1cccnc1)NCCc1ccc2c(n1)NCCC2 | 50 µM |
| CCN(CCN(C)C)c1cc(-c2ccccc2)nc2ccccc12 | 100 µM |
| CN1c2c(-c3ccccc3)nn(CC(=O)N/N=C/c3ccc(Cl)c(Cl)c3)c2-c2ccccc2S1(=O)=O | 38 µM |
| Nc1ccc2c(c1)CN(c1nn3c(C(F)F)nnc3c3ccccc13)CC2 | >100 µM |
| Cc1ccc(S(=O)(=O)NCCc2ccc3c(n2)NCCC3)cc1 | 50 µM |
| OCCNc1nc(-c2cccs2)cc(-c2cccs2)n1 | 100 µM |
| CN1CCN(CCSc2nnc(-c3ccc4ccccc4c3)c3ccccc23)CC1 | 100 µM |
| CN(C)CCSc1nccc(-c2nccs2)n1 | 100 µM |
| CC(=O)Nc1ccc(/C=N/NC(=O)Cn2nc(-c3ccccc3)c3c2-c2ccccc2S(=O)(=O)N3C)cc1 | >100 µM |
| CC(C)(C)C(=O)OCOP(=O)(CC[C@H]1O[C@@H](n2cnc3c(N)nc(N)nc32)[C@](C)(F)[C@@H]1O)OCOC(=O)C(C)(C)C | >100 µM |
| CN1CCN(c2nc(-c3ccccc3)cc(-c3cccs3)n2)CC1 | 100 µM |
| OCCN(CCO)CCOc1nc(-c2cccs2)cc(-c2cccs2)n1 | 100 µM |
| O=C(NCCc1ccc2c(n1)NCCC2)Nc1cccc2ocnc12 | 22 µM |
| CN1CCN(c2cc(-c3cccs3)nc3ccccc23)CC1 | 100 µM |
| CN1CCN(CCSc2nnc(-c3ccc4ccccc4c3)c3ccccc23)CC1 | 100 µM |
| CN1c2c(-c3ccccc3)nn(CC(=O)N/N=C/c3c(Cl)cccc3Cl)c2-c2ccccc2S1(=O)=O | >100 µM |
| CN(C)CCNc1cc(-c2ccco2)nc2ccccc12 | 1.2 µM |
| O=c1[nH]cnc2c1ncn2[C@H]1O[C@@H](CO)CC1(F)F | >100 µM |
| c1cnc2c(c1)CN(c1nn3c(C4CC4)nnc3c3ccccc13)CC2 | 11.9 µM |
| CCN(CC)c1ccc(/C=N/NC(=O)Cn2nc(-c3ccccc3)c3c2-c2ccccc2S(=O)(=O)N3C)cc1 | >100 µM |
| CN1CCN(c2nc(-c3cccs3)cc(-c3cc4ccccc4s3)n2)CC1 | >100 µM |
| FC(F)(F)c1cccc2c1CCN(c1nn3c(C4CC4)nnc3c3ccccc13)C2 | 49.4 µM |
| CN1CCN(c2c3c(nc4ccccc24)-c2ccsc2CC3)CC1 | 90 µM |
| CN1CCN(CCSCc2ccc(-c3cccc(-c4ccc(CSCCN5CCN(C)CC5)cc4)n3)cc2)CC1 | 10 µM |
| Nc1nc(=O)n([C@H]2O[C@@H](CO)CC2(F)F)cc1I | >100 µM |
| COc1ccc(/C=N/NC(=O)Cn2nc(-c3ccccc3)c3c2-c2ccccc2S(=O)(=O)N3C)c(OC)c1 | >100 µM |
| Nc1ccn([C@@H]2O[C@@H](CO)CC2(F)F)c(=O)n1 | >100 µM |
| CC(C)(C)C(=O)OCOP(=O)(CC[C@H]1O[C@@H](n2ccc(=O)[nH]c2=O)[C@](C)(F)[C@@H]1O)OCOC(=O)C(C)(C)C | >100 µM |
| CN(C)CCNc1c2c(nc3ccccc13)-c1ccsc1CC2 | 100 µM |
| Nc1ncnc2c1ncn2[C@@H]1O[C@@H](CO)CC1(F)F | >100 µM |
| O=C(NCCc1ccc2c(n1)NCCC2)Nc1c(F)cccc1C(F)(F)F | 12 µM |
| CN1c2c(-c3ccccc3)nn(CC(=O)N/N=C/c3ccc(O)cc3O)c2-c2ccccc2S1(=O)=O | 7.8 µM |
| Nc1ccc2c(c1)CN(c1nn3c(-c4cccs4)nnc3c3ccccc13)CC2 | 4.3 µM |
| CN(C)CCSc1cccc(-c2cc(-c3cccs3)nc(SCCN(C)C)n2)c1 | 10 µM |
| CC(C)c1nnc2c3ccccc3c(N3CCc4ccc(NS(C)(=O)=O)cc4C3)nn12 | 2.64 µM |
| CN(C)CCSc1ccc(-c2ccc(-c3ccc(SCCN(C)C)cc3)nn2)cc1 | 10 µM |
| COC(=O)c1ccc2c(c1)CN(c1nn3c(C)nnc3c3ccccc13)CC2 | 6.72 µM |
| O=c1[nH]c(=O)n([C@H]2O[C@@H](CO)CC2(F)F)cc1I | >100 µM |
| CC(=O)Nc1ccc2c(c1)CN(c1nn3c(C)nnc3c3ccccc13)CC2 | 79.2 µM |
| CN(C)CCNc1nc(-c2cccs2)cc(-c2cccs2)n1 | 10 µM |

For reference, 4 entries again:

| SMILES | value |
|---|---|
| Cc1nnc2c3ccccc3c(N3CCc4cc(O)c(O)cc4C3)nn12 | 3.28 µM |
| FC(F)(F)c1cccc2c1CCN(c1nn3c(C4CC4)nnc3c3ccccc13)C2 | 49.4 µM |
| CN1CCN(CCSCc2ccc(-c3cccc(-c4ccc(CSCCN5CCN(C)CC5)cc4)n3)cc2)CC1 | 10 µM |
| O=C(NCCc1cccnc1)NCCc1ccc2c(n1)NCCC2 | 50 µM |

Rows are shuffled and stem from different studies.